Measurements taken from patent US11154621B2, “Liponucleotide-based therapy for COPD” (priority 2017, dated 2021).

System: influenza A/WSN/33 (H1N1)-infected mice
Experiment: Effect of influenza infection and i.p. liponucleotide treatment on lung function
Type: in vivo
Conditions: MOCK (inoculated with virus diluent) mice, day 6; CDP-CHO 100 μg/mouse i.p.

C[N+](C)(C)CCOP(=O)(O)OP(=O)(O)OC[C@H]1O[C@@H](n2ccc(N)nc2=O)C(O)C1O (some centres unmarked) [CDP-CHO, CDP-choline]
HR (bpm): 730 ± 10 bpm | SaO2 (%): 99.0 ± 0.2%
